Measured values reported in PubChem BioAssay AID1721 (National Center for Advancing Translational Sciences (NCATS), 2009).
Values joined by “and” are separate entries in the source; they are usually repeats but may differ in a detail not shown here. Equal values may be shown once. This is a selection; strong and weak results do not stand in their true shares. Active and inactive are the calls of the source. Calls follow the shape of the dose curve; as a rule, active = well fitted inhibition curve with a large enough effect; inconclusive = small, poorly fitted or top-dose-only effect, or another doubt; inactive = no such curve, though single readings can be large or run the other way.

Protein sequences, listed by entry. Tags and fused reporters are not part of them. Lines headed by an entry give the natural chain unless they say otherwise; changes in a name come on top.
UniProt Q27686: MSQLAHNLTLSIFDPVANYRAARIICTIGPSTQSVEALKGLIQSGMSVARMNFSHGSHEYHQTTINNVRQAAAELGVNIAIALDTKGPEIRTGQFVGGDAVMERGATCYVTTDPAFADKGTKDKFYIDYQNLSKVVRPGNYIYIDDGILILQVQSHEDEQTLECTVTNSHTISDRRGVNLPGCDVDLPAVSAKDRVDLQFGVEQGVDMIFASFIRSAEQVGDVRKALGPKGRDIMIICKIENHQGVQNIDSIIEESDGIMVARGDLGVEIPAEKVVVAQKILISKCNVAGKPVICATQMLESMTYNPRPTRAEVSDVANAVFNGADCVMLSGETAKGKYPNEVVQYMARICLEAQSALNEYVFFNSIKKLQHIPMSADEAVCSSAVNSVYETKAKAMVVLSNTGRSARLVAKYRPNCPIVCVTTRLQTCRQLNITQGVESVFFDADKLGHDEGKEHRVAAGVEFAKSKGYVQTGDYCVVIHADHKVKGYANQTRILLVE

Biological target: Pyruvate kinase (Leishmania mexicana) (UniProt Q27686)
Experiment: qHTS Assay for Inhibitors of Leishmania Mexicana Pyruvate Kinase (LmPK)
Conditions: purified LmPK, Kinase-Glo ATP luminescence, 1 h; at 57.5 µM (top of the series)
Source text: NIH Chemical Genomics Center [NCGC] Malcolm Walkinshaw, Hugh Morgan, Linda Gilmore University of Edinburgh, UK MLPCN Grant: 1 R03 MH085697-01 NCGC Assay Overview: Pyruvate kinase (L. Mexicana) (LmPK) enzyme was supplied as a highly purified (>95% pure) sulphate-free preparation from University of Edinburgh, UK and assayed for its ability to generate ATP from ADP using phosphoenolpyruvate (PEP) as a substrate. ATP generation was detected in a coupled reaction by luciferase-mediated luminescence, an ATP-dependent process. […] The enzyme was assayed at an intermediate level of activity to screen for both inhibitors and activators.
NCGC Assay Protocol Summary: Three uL of enzyme mix (kept on ice) in assay buffer (50 mM Imidazole pH7.2, 50 mM KCl, 7 mM MgCl2, 0.01% Tween 20, 0.05% BSA) containing PEP (0.5 mM final concentration) and LmPK (0.1 nM final concentration) was dispensed into white solid bottom 1,536 well microtiter plates. 23 nL of compound were delivered by a pin tool and 1 uL of ADP mix in assay buffer (r.t; 0.1 mM final ADP concentration) was added. Plates were incubated at room temperature for 1 hour. Two uL of detection mix (Kinase-Glo, Promega; at 4 degree Celsius protected from light) was added and luminescence read by a ViewLux (Perkin Elmer) at 1 second exposure/plate. Data were normalized to the uninhibited and AC100 inhibition (no enzyme). To monitor activation, the first column contained a five-fold concentration of LmPK (0.5 nM).
% is scaled to controls: 0 for no effect and ±100 for the full control effect.

Row | SMILES | activity change, negative = inhibition
1 | CN1CCCC(OC(=O)C(c2ccccc2)c2ccccc2)C1 (configuration not stated) | inactive: -0.377%
2 | Clc1ccc(Cl)c(NC2=NCC(CBr)S2)c1 (configuration not stated) | inactive: 1.97%
3 | Cc1ccc(OP(=O)(Nc2nccs2)Oc2ccc(C)cc2)cc1 | inactive: 0.919%
4 | COc1ccccc1OP(=O)(Nc1ccc(C)cn1)Oc1ccccc1OC | inactive: -5.4%
5 | Cc1ccc(N/C(=N/P(=O)(N2CCOCC2)N2CCOCC2)N2CCOCC2)cc1 | inactive: 1.83%
6 | NC(=O)c1cc([N+](=O)[O-])cc([N+](=O)[O-])c1N | inactive: -2.7%
7 | O=C(NC(Sc1ccncn1)C(Cl)(Cl)Cl)c1ccccc1 (configuration not stated) | inactive: 1.8%
8 | Cc1c2non([O-])c-2c(C)[n+](=O)[n+]1[O-] | inactive: 1.07%
9 | Oc1ccccc1CNc1ccccn1 | inactive: 11.2%
10 | Nc1cc(N)c2nonc2c1[N+](=O)[O-] | inactive: 2.06%
11 | CC(C)CC(=O)NC(Sc1ccc(Cl)cc1)C(Cl)(Cl)Cl (configuration not stated) | inactive: 0.232%
12 | Cc1ccc(NP(=O)(Oc2ccccc2F)Oc2ccccc2F)nc1 | inactive: 2.71%
13 | Cc1cc(SC(NC(=O)c2ccc(F)cc2)C(Cl)(Cl)Cl)ncn1 (configuration not stated) | inactive: 2.91%
14 | CCOP(=O)(Nc1ccccc1)OCC | inactive: 2.92% and inactive: 0.17%
15 | O=P(Nc1nc2ccc(Cl)cc2s1)(c1ccccc1)c1ccccc1 | inactive: -3.08%
16 | CC(=O)Nc1ccc([As](=O)(O)O)cc1 | inactive: -0.908%
17 | O=C(O)c1ccccc1[As](=O)(O)O | inactive: -8.03%
18 | Nc1cccc2ccc([As](=O)(O)O)cc12 | inactive: 5.7%
19 | CCN(N=Nc1nonc1N)c1nonc1N | inactive: -0.483%
20 | O=[N+]([O-])c1cc([N+](=O)[O-])c(CCN2CCOCC2)c([N+](=O)[O-])c1 | inactive: 8.38%
21 | O=C(Nc1cc([As](=O)(O)O)ccc1O)c1ccccc1 | inactive: 5.77%
22 | O=C(O)CNc1ccc([As](=O)(O)O)cc1 | inactive: -0.544%
23 | O=[N+]([O-])c1cccc(NC2=NCC(CBr)S2)c1 (configuration not stated) | inactive: -4.87%
24 | O=[N+]([O-])c1ncn(CCn2ncnc2[N+](=O)[O-])n1 | inactive: 1.45%
25 | CC(C)(C)C(=O)NC(Sc1ccncn1)C(Cl)(Cl)Cl (configuration not stated) | inactive: 3.47%
26 | CCc1nc2c(n1)c1c(non1O)c1c2no[n+]1[O-] | inactive: -6.62%

Row | SMILES | activity change, negative = inhibition
27 | O=[N+]([O-])c1cc([N+](=O)[O-])c(CCNc2ccccc2)c([N+](=O)[O-])c1 | inactive: -6.23%
28 | Cc1ccc(NP(=O)(Oc2ccccc2)Oc2ccccc2)nc1 | inactive: -0.252%
29 | O=[N+]([O-])c1cccc2n[nH]nc12 | inactive: 4.21%
30 | CC(=O)N1C2C3N(C(C)=O)C1C1N(C(C)=O)C(C(N1C(C)=O)N3C(C)=O)N2C(C)=O | inactive: 2.65%
31 | COc1ccc(C2=NCC(CBr)S2)cc1 (configuration not stated) | inactive: -2.61%
32 | CC1CCN(C(=O)Oc2c(Cl)cc(Cl)c3cccnc23)CC1 | inactive: 2.82%
33 | CN(C)C(=O)OCCc1n(C)cc[n+]1C | inactive: -2.54%
34 | CC(C)=N/N=C(\N)N[N+](=O)[O-] | inactive: 0.909%
35 | CCN(/C(=N/P(=O)(N1CCOCC1)N1CCOCC1)N1CCOCC1)c1ccc(OC)cc1 | inactive: 0.99%
36 | Nc1ccc([As](=O)(O)c2ccc(N)cc2)cc1 | inactive: 1.25%
37 | c1nnnn1CCn1cnnn1 | inactive: 2.53%
38 | CC(C)C(=O)NC(Sc1ccccc1)C(Cl)(Cl)Cl (configuration not stated) | inactive: 0.892%
39 | O=P(Nc1nccs1)(c1ccccc1)c1ccccc1 | inactive: -11.8%
40 | C[C@H]1OP(=O)(Oc2ccccc2)[C@H](O)[C@H](O)[C@H]1N=[N+]=[N-] (some centres not stated) | inactive: -0.878%
41 | O=P(Nc1nc2ccccc2s1)(c1ccccc1)c1ccccc1 | inactive: 2.19%
42 | O=P(Nc1ccccn1)(c1ccc(Br)cc1)c1ccc(Br)cc1 | inactive: 0.396%
43 | CN(C)C1(CNC(=O)c2ccc(Cl)c(S(N)(=O)=O)c2)CCCCC1 | inactive: 0.502%
44 | O=C(OC1CN2CCC1CC2)c1cccc(Cl)c1 (configuration not stated) | inactive: 3.69%
45 | C(Cc1nn[nH]n1)Cc1nn[nH]n1 | inactive: -3.29%
46 | Nc1ccc([As](=O)(O)c2ccc([N+](=O)[O-])cc2)cc1 | inactive: 0.847%
47 | O=[As](O)(c1ccccc1)c1ccc(O)cc1 | inactive: 4.41%
48 | O=[N+]([O-])c1ccc(O)c(/C=N/Nc2ccc([N+](=O)[O-])cc2[N+](=O)[O-])c1 | inactive: 7.29%
49 | O=[N+]([O-])c1ncn(CCn2cnc([N+](=O)[O-])n2)n1 | inactive: 0.369%
50 | CC(=O)NC(SC(=S)N(C)C)C(Cl)(Cl)Cl (configuration not stated) | inactive: -1.75%
51 | CCOC(=O)NC(Sc1ccccc1)C(Cl)(Cl)Cl (configuration not stated) | inactive: -0.677%
52 | Cc1ccc(NP(=O)(Oc2cccc(C)c2)Oc2cccc(C)c2)nc1 | inactive: 1.1%

Row | SMILES | activity change, negative = inhibition
53 | c1ccc(-c2nn[nH]n2)c(-c2nn[nH]n2)c1 | inactive: 4.57%
54 | CCNC(=S)/N=C(\N)N[N+](=O)[O-] | inactive: 3.67%
55 | O=C(NC1CCS(=O)(=O)C1)NP(=S)(Oc1ccccc1)Oc1ccccc1 (configuration not stated) | inactive: 12.2%
56 | O=c1c2cc([N+](=O)[O-])ccc2[nH]c2c([N+](=O)[O-])cc([N+](=O)[O-])cc12 | inactive: -4.9%
57 | CN(C)C(=O)Oc1noc2ccccc12 | inactive: 2.58%
58 | Cc1ccccc1OP(=O)(Nc1ccccn1)Oc1ccccc1C | inactive: 7.27%
59 | CCC(=O)N1C2C3N(C(=O)CC)C1C1N(C(=O)CC)C(C(N1C(=O)CC)N3C(=O)CC)N2C(=O)CC | inactive: 0.71%
60 | O=C(OC1CN2CCC1CC2)c1ccccc1 (configuration not stated) | inactive: -3.03%
61 | Cc1ccc(OP(=O)(Nc2ccccn2)Oc2ccc(C)cc2)cc1 | inactive: 5.34%
62 | CC(=O)NC(SC(=S)N(CC(C)C)CC(C)C)C(Cl)(Cl)Cl (configuration not stated) | inactive: 1.59%
63 | COC(=O)c1cc2c(s1)N=C(c1ccccc1)N(C)P2(=O)N1CCOCC1 (configuration not stated) | inactive: -2.09%
64 | CC(C)(C)C(=O)NC(Sc1ccccc1)C(Cl)(Cl)Cl (configuration not stated) | inactive: -10.4%
65 | CCOc1ccc(C2=NCC(CBr)S2)cc1 (configuration not stated) | inactive: 2.63%
66 | O=P1(Nc2nc3ccc(Cl)cc3s2)COc2ccccc2O1 (configuration not stated) | inactive: -1.1%
67 | CC(=O)Nc1ccc(Oc2c([N+](=O)[O-])cc([N+](=O)[O-])cc2[N+](=O)[O-])cc1 | inactive: -0.606%
68 | CC(=O)Nc1ccc([As](=O)(O)O)c(O)c1 | inactive: 2.35%
69 | C[C@H]1OP(=O)(Oc2ccccc2)C[C@@H]2O[C@@H]21 (some centres not stated) | inactive: -0.707%
70 | C[C@@H]1C=CCP(=O)(Oc2ccccc2)O1 (some centres not stated) | inactive: 3.87%
71 | CC(=O)c1ccc(N2CC2c2ccncc2)cc1 (configuration not stated) | inactive: 2.63%
72 | Cc1cccc(OCC(=O)OC2CN3CCC2CC3)c1 (configuration not stated) | inactive: 0.51%
73 | O=[As](O)(c1cccc(O)c1)c1cccc(O)c1 | inactive: 15.1%
74 | O=C(OC1CN2CCC1CC2)c1ccc(Cl)cc1 (configuration not stated) | inactive: 3.26%
75 | CS(=O)(=O)c1ccc(Cl)c(NC(=O)COC(=O)C(O)(c2ccccc2)c2ccccc2)c1 | inactive: 0.309%
76 | O=[As](O)(O)c1cccnc1 | inactive: -2.75%
77 | COc1cc(C(=O)NCC2(N3CCOCC3)CCCCC2)cc(Cl)c1OC(C)C | inactive: 2.76%
78 | CCOP(=O)(Nc1cccc2ccccc12)OCC | inactive: 0.12%

Row | SMILES | activity change, negative = inhibition
79 | COc1cc(C2NCCC3(OCCO3)C2(C)C)cc(OC)c1OC (configuration not stated) | inactive: -2.52%
80 | Nc1cccc2c([As](=O)(O)O)cccc12 | inactive: -7.04%
81 | Cc1ccc(NCCc2c([N+](=O)[O-])cc([N+](=O)[O-])cc2[N+](=O)[O-])cc1 | inactive: -5.73%
82 | CCCOP(=S)(Nc1nc(N)cc(=O)[nH]1)OCCC | inactive: 0.76%
83 | Nc1ccccc1[As](=O)(O)c1ccccc1 | inactive: 0.488%
84 | O=C(O)COc1ccc([As](=O)(O)O)cc1[N+](=O)[O-] | inactive: -0.98%
85 | O=P(Nc1nccs1)(Oc1ccccc1)Oc1ccccc1 | inactive: -0.861%
86 | O=P(Nc1nccs1)(c1ccccc1)c1nc2ccccc2s1 (configuration not stated) | inactive: -21.6%
87 | CCOP1(=S)c2c(C)nn(CCC#N)c2N=C(c2ccccc2F)N1C (configuration not stated) | inactive: 0.284%
88 | CN(C(=O)Cc1ccccc1)[C@@H]1CC[C@]2(CCCO2)C[C@H]1N1CCCC1 | inactive: -4.16%
89 | CCOP1(=S)c2c(C)nn(CCC#N)c2N=C(c2ccc(F)cc2)N1C (configuration not stated) | inactive: 11.4%
90 | O=[N+]([O-])c1ccc2c(c1)nnn2O | inactive: -0.818%
91 | NC(=O)Nc1ccc([As](=O)(O)O)cc1 | inactive: -0.667%
92 | CN(C)C1(CNC(=O)c2ccc(S(C)(=O)=O)cc2)CCCCC1 | inactive: 5.64%
93 | O=C(/C=C/c1ccccc1)OC1CN2CCC1CC2 (configuration not stated) | inactive: 2.13%
94 | CC1CCC(C(C)C)C(OP(=O)(Nc2ccccn2)c2ccccc2)C1 (configuration not stated) | inactive: -3.73%
95 | Cc1ccc(C(=O)OC2CN3CCC2CC3)cc1 (configuration not stated) | inactive: 3.7%
96 | Cc1nn(-c2ccccc2)c2c1P(=O)(N1CCOCC1)N(C)C(c1ccccc1)=N2 (configuration not stated) | inactive: 0.016%
97 | Nc1cccc([As](=O)(O)c2ccccc2)c1 | inactive: -0.192%
98 | O=[As](O)(c1cccs1)c1cccs1 | inactive: 4.71%
99 | Cc1ccc(OCC(=O)OC2CN3CCC2CC3)cc1 (configuration not stated) | inactive: 0.36%
100 | O=P1(Nc2ccc(Br)cn2)COc2ccccc2OC1 | inactive: 1.87%
101 | O=P1(Nc2ncccn2)COc2ccccc2OC1 | inactive: -3.27%
102 | CC(C)(C)C(=O)NC(Sc1ncccn1)C(Cl)(Cl)Cl (configuration not stated) | inactive: 0.545%
